Results reported in patent US20030166028A1.

Tested on: FL-MEK1-A546 peptide

**Q.** How did the Ratio 570/525 (trypsin .1 uM, 30 minutes at 37 C) turn out when trypsin was run?
**A.** Its Ratio 570/525 (trypsin .1 uM, 30 minutes at 37 C) is 0.63.
